Compound potency records, mixed from different reports. Data source: NIAID ChemDB in PubChem.

Shared fields: enzyme or target tests; species: Hepatitis C virus; target: Nonstructural protein 5B; read-out: IC50

Lines come from different laboratories, so protocols vary. ICn: concentration for n% inhibition. Two numbers with a dash give a range or band. An empty or dashed field is not shown.

structure,read by,strain,result
O=C(O)CN1C(=O)C(=Cc2ccc(-c3cc(Cl)cc(Cl)c3)o2)SC1=S,-,-,≤1 µM
COc1c(-c2ccc3cc(NS(C)(=O)=O)ccc3c2)cc(-n2ccc(=O)[nH]c2=O)cc1C(C)(C)C,nucleotide incorporation,GT 1a-H77,0.0028 µM
CN(C)S(=O)(=O)c1ccc(CCC2(C3CCCC3)CC(=O)CC(=O)O2)cc1,-,-,10–50 µM
O=C(O)c1ccc(N2C(=O)C(=Cc3ccc(-c4ccc5c(c4)OCO5)o3)SC2=S)cc1,-,-,≤1 µM
CNC(=O)c1c(-c2ccc(F)cc2)oc2cc(NC(C)(C)C)c(OC(C)C)cc12,-,-,≤0.5 µM
COc1ccc(CCC2(C3CCCC3)CC(O)=C(Sc3nc4nc(C)cc(C)[n+]4[nH]3)C(=O)O2)cc1Cl,-,-,<1 µM
COc1ccc(-c2ccc(C=C3SC(=S)N(c4ccc(C(=O)O)cc4)C3=O)o2)cc1,-,-,≤1 µM
CNC(=O)c1c(-c2ccc(F)cc2)oc2cc(N3CCOCC3)c(OCCOC)cc12,-,-,≤0.5 µM
CC(=O)c1ccc(-c2ccc(C=C3SC(=S)N(c4ccc(C(=O)O)cc4)C3=O)o2)s1,-,-,≤1 µM
CNC(=O)c1c(-c2ccc(F)cc2)oc2cc(N(C)S(C)(=O)=O)c(OCc3cccc(OC)c3)cc12,-,-,≤0.5 µM
O=C1OC(CCc2ccc(OCc3ccccc3)cc2)(C2CCCC2)CC(O)=C1Sc1nc2[nH]ccc2c(=O)[nH]1,-,-,<1 µM
CNC(=O)c1c(-c2ccc(F)cc2)oc2cc(-c3ncon3)c(OC(C)C)cc12,-,-,≤0.5 µM
O=C1C=C(O)CC(CCCC2CCCCC2)(C2CCCC2)O1,-,-,10–50 µM
CNC(=O)c1c(-c2ccc(F)cc2)oc2cc(N(C)S(C)(=O)=O)c(OCc3c(C)noc3C)cc12,-,-,≤0.5 µM
CCCc1ccc(-c2ccc(C=C3SC(=S)N(c4ccc(C(=O)O)cc4)C3=O)o2)cc1,-,-,≤1 µM

Repeating the final 2 entries:

{"structure": "CNC(=O)c1c(-c2ccc(F)cc2)oc2cc(N(C)S(C)(=O)=O)c(OCc3c(C)noc3C)cc12", "result": "≤0.5 µM"}
{"structure": "CCCc1ccc(-c2ccc(C=C3SC(=S)N(c4ccc(C(=O)O)cc4)C3=O)o2)cc1", "result": "≤1 µM"}